Source: patent US11365220B2, “Methods of making anti-GP41 antibody-specific capture agents” (California Institute of Technology, priority 2013, dated 2022)

Conditions: lyophilized, under N2 at 25° C., 37° C., or 57° C. for 58 days

With “Biotin-PEG5-IWCGSGKLICTTA-Pra-(TZ-Az4-eihny-CONH2)-ICTTA-CONH2 [(iii)]” the “Degradation after storage (HPLC traces)” value was “little to no degeneration”.
